According to patent US9694024B2 (priority 2010, dated 2017):

Test system: HIVIIIB
Test: CMX157 and tenofovir levels in HIVIIIB lysates
Conditions: HIV + 500 nM compound

Structure (SMILES)	Tenofovir level in HIVIIIB lysate [pmol]	CMX157 level in HIVIIIB lysate [pmol]
C[C@H](Cn1cnc2c(N)ncnc21)OCP(=O)(O)O [Tenofovir, (R)-9-(2-phosphonylmethoxypropyl)adenine, reference compound]	17	
CCCCCCCCCCCCCCCCOCCCOP(=O)(O)CO[C@H](C)Cn1cnc2c(N)ncnc21 [CMX157, 3-(hexadecyloxy)propyl hydrogen ((R)-1-(6-amino-9H-purin 9-yl)propan-2-yloxy)methylphosphonate]	0.3	5406
